The list shows a part of the results, in another mix than the full data. The source made the active and inactive calls. Rule as the data show it: active = inhibition above about 28%; inactive = the rest.
system: EBNA-1 (Epstein-Barr virus nuclear antigen 1), Human herpesvirus 4; experiment: blockers of EBV EBNA-1 binding to DNA – biochemical, fluorescence polarization, primary screen (AID 1950); settings: EBNA-1 DNA binding, at 14.8 µM, hits give high values

SMILES	inhibition
CC1(CBr)Cn2c(nc3ccccc3c2=O)S1 (stereo unspecified)	inactive: -9.36%
O=[As](O)(c1ccccc1Br)c1ccccc1Br	inactive: -7.2%
CN(C(=O)Cc1ccc(Cl)c(Cl)c1)[C@@H]1CCCC[C@H]1N1CCCC1	inactive: 7.73%
CC(C)/C=N\N=C(\N)N[N+](=O)[O-]	inactive: -12.1%
COc1ccccc1CNC(=O)COC(=O)C(O)(c1ccccc1)c1ccccc1	inactive: -3.83%
CC(C)(C)C(=O)NC(Sc1ncccn1)C(Cl)(Cl)Cl (stereo unspecified)	inactive: -2.16%
Clc1n[nH]nc1-c1nn[nH][15n]1	inactive: 2%
CN(CCCl)Cc1cc(Cl)c(NC2=NCCN2)c(Cl)c1	inactive: -3.94%
CCOP(=O)(Nc1ccc(C)cn1)OCC	inactive: -1.13%
CCOP(=O)(NC(=NC(C)c1ccccc1)NC(C)c1ccccc1)OCC (stereo unspecified)	inactive: -8.2%
CCC1=CC2Cc3nc4ccc(Cl)cc4c(N)c3C(C1)C2 (stereo unspecified)	inactive: 4.02%
O=P1(Nc2ccccn2)COc2ccccc2OC1	inactive: -16.8%
O=P1(Nc2ccc(Br)cn2)COc2ccccc2OC1	inactive: -7.06%
Cc1ccc(OCC(=O)OC2CN3CCC2CC3)cc1 (stereo unspecified)	inactive: 0.94%
O=[As](O)(c1cccs1)c1cccs1	inactive: -18.7%
Nc1cccc([As](=O)(O)c2ccccc2)c1	inactive: -4.9%
O=P1(Nc2ncccn2)COc2ccccc2OC1	inactive: 2.16%
O=C(/C=C/c1ccccc1)OC1CN2CCC1CC2 (stereo unspecified)	inactive: -2.49%
CN(C)C1(CNC(=O)c2ccc(S(C)(=O)=O)cc2)CCCCC1	inactive: -2.53%
Cc1ccc(C(=O)OC2CN3CCC2CC3)cc1 (stereo unspecified)	inactive: -9.17%
CC1CCC(C(C)C)C(OP(=O)(Nc2ccccn2)c2ccccc2)C1 (stereo unspecified)	inactive: 3.42%
Cc1nn(-c2ccccc2)c2c1P(=O)(N1CCOCC1)N(C)C(c1ccccc1)=N2 (stereo unspecified)	inactive: 2.12%
CN(C(=O)Cc1ccc(Cl)c(Cl)c1)[C@H]1CC[C@@]2(CCCO2)C[C@@H]1N1CCCC1	inactive: -0.71%
CN(C)C(=O)c1cc([N+](=O)[O-])cc2c1-c1c(cc([N+](=O)[O-])cc1[N+](=O)[O-])C2=O	inactive: -9.48%
O=[N+]([O-])c1ccc2c(c1)nnn2O	inactive: 13.5%
CN(C(=O)Cc1ccccc1)[C@@H]1CC[C@]2(CCCO2)C[C@H]1N1CCCC1	inactive: -5.64%

SMILES	inhibition
CCOP1(=S)c2c(C)nn(CCC#N)c2N=C(c2ccc(F)cc2)N1C (stereo unspecified)	inactive: 8.24%
N#CCCN(C(=O)COC(=O)C(O)(c1ccccc1)c1ccccc1)c1ccc(F)cc1	inactive: 2.7%
NC(=O)Nc1ccc([As](=O)(O)O)cc1	inactive: -4.71%
O=C(O)COc1ccc([As](=O)(O)O)cc1[N+](=O)[O-]	inactive: -3.32%
Nc1ccccc1[As](=O)(O)c1ccccc1	inactive: -8.69%
CS(=O)(=O)c1cc([N+](=O)[O-])c2no[n+]([O-])c2c1	inactive: 4.25%
O=P(Nc1nccs1)(c1ccccc1)c1nc2ccccc2s1 (stereo unspecified)	inactive: 7.14%
O=P(Nc1nccs1)(Oc1ccccc1)Oc1ccccc1	inactive: 2.66%
CCOP1(=S)c2c(C)nn(CCC#N)c2N=C(c2ccccc2F)N1C (stereo unspecified)	inactive: -1.36%
CCOP(=O)(Nc1cccc2ccccc12)OCC	inactive: 5.49%
COc1cc(C2NCCC3(OCCO3)C2(C)C)cc(OC)c1OC (stereo unspecified)	inactive: -0.19%
CCCOP(=S)(Nc1nc(N)cc(=O)[nH]1)OCCC	inactive: -1.12%
Cc1ccc(NCCc2c([N+](=O)[O-])cc([N+](=O)[O-])cc2[N+](=O)[O-])cc1	inactive: -3.01%
Nc1cccc2c([As](=O)(O)O)cccc12	inactive: 7.21%
O=[As](O)(c1cccc(O)c1)c1cccc(O)c1	inactive: 7.61%
Cc1cccc(OCC(=O)OC2CN3CCC2CC3)c1 (stereo unspecified)	inactive: 2.84%
CS(=O)(=O)c1ccc(Cl)c(NC(=O)COC(=O)C(O)(c2ccccc2)c2ccccc2)c1	inactive: -5.75%
COc1cc(C(=O)NCC2(N3CCOCC3)CCCCC2)cc(Cl)c1OC(C)C	inactive: -4.96%
O=[As](O)(O)c1cccnc1	inactive: 7.58%
O=C(OC1CN2CCC1CC2)c1ccc(Cl)cc1 (stereo unspecified)	inactive: 2.75%
COc1ccc(N/C(=N/P(=O)(N2CCOCC2)N2CCOCC2)N2CCOCC2)cc1	inactive: 6.56%
COc1cc(I)ccc1[As](=O)(O)O	inactive: -0.03%
COc1ccc2nc(NP(=O)(c3ccccc3)c3ccccc3)sc2c1	inactive: -8.95%
Cc1cc(=O)[nH]c(N[N+](=O)[O-])n1	inactive: 6.53%
O=C(OC1CN2CCC1CC2)C12CC3CC(CC(C3)C1)C2 (stereo unspecified)	inactive: 4.8%
Cc1c2c(nc3ccccc13)SC(C(Cl)Cl)C2 (stereo unspecified)	inactive: 3.56%

SMILES	inhibition
O=[N+]([O-])c1cc([N+](=O)[O-])c(-c2ccn[nH]2)s1	inactive: -0.57%
CCN(CC)C(=S)SC(NC=O)C(Cl)(Cl)Cl (stereo unspecified)	inactive: -6.85%
CC(C)NC(=O)NP(=O)(Oc1ccccc1)Oc1ccccc1	inactive: 12.1%
CC(C)c1ccc(OP(=O)(Nc2ccccn2)Oc2ccccc2F)cc1 (stereo unspecified)	inactive: 5.18%
ClCCSc1nnc(-c2cccnc2)o1	inactive: 5.11%
Cc1ccc2nc3c(c(C)c2c1)CC(C(Cl)Cl)S3 (stereo unspecified)	inactive: -7.46%
Cc1ccc(OP(=O)(Nc2ccc([N+](=O)[O-])cn2)Oc2ccc(C)cc2)cc1	inactive: -1.61%
O=[As](O)(c1ccc(O)cc1)c1ccccc1O	inactive: -15.4%
C[As](=O)(O)c1cccc(C(=O)O)c1	inactive: -6.36%
Cc1cc(SC(NC=O)C(Cl)(Cl)Cl)ncn1 (stereo unspecified)	inactive: -10.1%
O=P(Nc1ccccn1)(c1cccc2ccccc12)c1cccc2ccccc12	inactive: -1.77%
CCOC(=O)Nc1cccc([As](=O)(O)O)c1	inactive: 7.6%
Cc1cc(SC(NC(=O)c2ccccc2)C(Cl)(Cl)Cl)nc(C(C)C)n1 (stereo unspecified)	inactive: 2.64%
CCOC(=O)Nc1ccc([As](=O)(O)O)c(O)c1	inactive: -13.2%
CCC(C)N(CC(C)C)C(=S)SC(NC(C)=O)C(Cl)(Cl)Cl (stereo unspecified)	inactive: 5.9%
CCOC(=O)c1ccc(NC(=O)C(C)(CCl)SC)cc1 (stereo unspecified)	inactive: -0.12%
O=C(OC1CN2CCC1CC2)c1cccc([N+](=O)[O-])c1 (stereo unspecified)	inactive: -3.56%
O=C(Nc1ccncc1[N+](=O)[O-])c1ccc([N+](=O)[O-])cc1[N+](=O)[O-]	inactive: -4.87%
O=C(COc1ccccc1)OC1CN2CCC1CC2 (stereo unspecified)	inactive: -2.52%
COP1(=S)c2c(C)nn(CCC#N)c2N=C(c2ccc(F)cc2)N1C (stereo unspecified)	inactive: -3.3%
CN(C)C(=O)OCCc1n(C)cc[n+]1C	inactive: -5.9%
CC(C)=N/N=C(\N)N[N+](=O)[O-]	inactive: -1.13%
CC1CCN(C(=O)Oc2c(Cl)cc(Cl)c3cccnc23)CC1	inactive: 1.92%
C[N+]1=C2C=CC=CC=C2SC12C([N+](=O)[O-])=CC([N+](=O)[O-])=C[C-]2[N+](=O)[O-] (stereo unspecified)	inactive: -1.47%
Nc1ccc([As](=O)(O)c2ccc(N)cc2)cc1	inactive: -1.36%
CCN(/C(=N/P(=O)(N1CCOCC1)N1CCOCC1)N1CCOCC1)c1ccc(OC)cc1	inactive: -3.02%

SMILES	inhibition
CC(=O)N1C2C3N(C(C)=O)C1C1N(C(C)=O)C(C(N1C(C)=O)N3C(C)=O)N2C(C)=O	inactive: 0.88%
O=[N+]([O-])c1cccc2n[nH]nc12	inactive: 3.86%
O=[N+]([O-])c1cc([N+](=O)[O-])c(CCNc2ccccc2)c([N+](=O)[O-])c1	inactive: -8.51%
CCc1nc2c(n1)c1c(non1O)c1c2no[n+]1[O-]	inactive: 3.57%
Cc1ccc(NP(=O)(Oc2ccccc2)Oc2ccccc2)nc1	inactive: -19.1%
COc1ccc(C2=NCC(CBr)S2)cc1 (stereo unspecified)	inactive: 5.57%
O=[N+]([O-])c1cccc(NC2=NCC(CBr)S2)c1 (stereo unspecified)	inactive: -1.42%
CC(C)(C)C(=O)NC(Sc1ccncn1)C(Cl)(Cl)Cl (stereo unspecified)	inactive: 0.82%
O=[N+]([O-])c1ncn(CCn2ncnc2[N+](=O)[O-])n1	inactive: -1.34%
O=C(Nc1cc([As](=O)(O)O)ccc1O)c1ccccc1	inactive: -12.9%
CCN(N=Nc1nonc1N)c1nonc1N	inactive: 5.81%
O=[N+]([O-])c1cc([N+](=O)[O-])c(CCN2CCOCC2)c([N+](=O)[O-])c1	inactive: -3.63%
CN(C(=O)Cc1ccc(Cl)c(Cl)c1)[C@H]1CCCC[C@@H]1N1CCCC1	inactive: 0.08%
Cc1ccc(NP(=O)(Oc2ccccc2F)Oc2ccccc2F)nc1	inactive: -3.05%
CCOP(=O)(Nc1ccccc1)OCC	inactive: 6.2%
Cc1cc(SC(NC(=O)c2ccc(F)cc2)C(Cl)(Cl)Cl)ncn1 (stereo unspecified)	inactive: 5.39%
O=C(O)c1ccccc1[As](=O)(O)O	inactive: -2.57%
CC(=O)Nc1ccc([As](=O)(O)O)cc1	inactive: -0.52%
O=P(Nc1nc2ccc(Cl)cc2s1)(c1ccccc1)c1ccccc1	inactive: -4.78%
CC(C)CC(=O)NC(Sc1ccc(Cl)cc1)C(Cl)(Cl)Cl (stereo unspecified)	inactive: -8.42%
Nc1cc(N)c2nonc2c1[N+](=O)[O-]	inactive: 3.63%
Cc1c2non([O-])c-2c(C)[n+](=O)[n+]1[O-]	inactive: -6.82%
O=C(NC(Sc1ccncn1)C(Cl)(Cl)Cl)c1ccccc1 (stereo unspecified)	inactive: -2.11%
